## DMS reactivity of the HIV-1 5' RNA in monomer and dimer

Data from the supplement of Ye et al. 2022, doi:10.1038/s41594-022-00746-2.

The 5' region of HIV-1 NL4-3 RNA (positions 1-437):
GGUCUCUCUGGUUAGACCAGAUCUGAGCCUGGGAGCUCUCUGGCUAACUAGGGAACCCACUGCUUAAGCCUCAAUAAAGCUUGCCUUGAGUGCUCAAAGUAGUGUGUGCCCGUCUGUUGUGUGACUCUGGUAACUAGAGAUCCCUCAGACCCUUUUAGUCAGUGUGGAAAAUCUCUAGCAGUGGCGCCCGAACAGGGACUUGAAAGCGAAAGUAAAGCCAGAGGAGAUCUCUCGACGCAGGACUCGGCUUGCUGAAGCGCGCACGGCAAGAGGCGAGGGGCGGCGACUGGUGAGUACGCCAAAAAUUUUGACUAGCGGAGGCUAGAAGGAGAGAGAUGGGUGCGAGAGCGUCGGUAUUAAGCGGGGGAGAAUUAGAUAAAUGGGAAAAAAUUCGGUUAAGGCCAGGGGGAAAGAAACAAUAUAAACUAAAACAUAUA

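Mutant RNA libraries with 1G, 2G or 3G starts, with or without cap, were folded at 37 °C for 30 min. Monomer and dimer bands were cut from native gels after folding in high salt (300 mM KCl, 5 mM MgCl2) or low salt (40 mM KCl, 0.1 mM MgCl2). Gel slices were treated with 170 mM dimethyl sulfate for 15 min at 37 °C and read by mutational profiling against an ethanol control.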

Values are winsor-normalised DMS reactivities of A and C; higher means more reactive, usually unpaired. One numbering serves 1G, 2G and 3G. A position is written with its base.

With C252 the assay gave 2G uncapped low-salt dimer 0.06; 1G capped high-salt monomer 0.16; 2G uncapped high-salt dimer 0.03. A255 read 2G uncapped low-salt dimer 0.48; 1G capped high-salt monomer 0.47; 2G uncapped high-salt dimer 0.54. A256 gave 2G uncapped low-salt dimer 1.08; 1G capped high-salt monomer 0.86; 2G uncapped high-salt dimer 1.11. C258 read 2G uncapped low-salt dimer 0.26; 1G capped high-salt monomer 0.36; 2G uncapped high-salt dimer 0.19. C260 read 2G uncapped low-salt dimer 0.39; 1G capped high-salt monomer 0.50; 2G uncapped high-salt dimer 0.28. For C262 the result was 2G uncapped low-salt dimer 0.25; 1G capped high-salt monomer 0.41; 2G uncapped high-salt dimer 0.18. A263 gave 2G uncapped low-salt dimer 0.84; 1G capped high-salt monomer 0.22; 2G uncapped high-salt dimer 0.93. With C264 the assay gave 2G uncapped low-salt dimer 0.21; 1G capped high-salt monomer 0.39; 2G uncapped high-salt dimer 0.17.

For C267 the result was 2G uncapped low-salt dimer 0.07; 1G capped high-salt monomer 0.19; 2G uncapped high-salt dimer 0.04. A268 read 2G uncapped low-salt dimer 0.18; 1G capped high-salt monomer 0.33; 2G uncapped high-salt dimer 0.15. With A269 the assay gave 2G uncapped low-salt dimer 0.26; 1G capped high-salt monomer 0.53; 2G uncapped high-salt dimer 0.21.

A selection of 2 entries from above:

- C267: 2G uncapped low-salt dimer 0.07; 1G capped high-salt monomer 0.19; 2G uncapped high-salt dimer 0.04
- C264: 2G uncapped low-salt dimer 0.21; 1G capped high-salt monomer 0.39; 2G uncapped high-salt dimer 0.17